Results of unrelated studies side by side (data: NIAID ChemDB).

Common to all: host cell toxicity; cells: A549; read-out: CC50

CCn is the concentration with n% toxicity to the cells.

smiles | read by | result
CCO[C@H]1c2cc(O)c(OC)c(OC)c2-c2c(cc(O)c(OC)c2OC)C[C@H](C)[C@@H]1C | MTT | >10 µg/mL
Cl.Cl.N=C(N)c1ccc(NC(=O)CCCC(=O)Nc2ccc(C(=N)N)cc2)cc1 |  | 1000 µg/mL
NC(=NC1CC1)c1ccc(N2CCN(c3ccc(C(N)=NC4CC4)cc3)CC2)cc1 |  | >130 µg/mL
Fc1ccc(-c2n[nH]c(=S)s2)cc1 | MTT | >100 µg/mL
CN1C=CN(c2cccc(N3C=CN(C)C3)n2)C1.[Cl][Au].[Cl][Au] | sulforhodamine / absorbance | >30 µM
O=[N+]([O-])c1ccc(-c2nc(=S)[nH][nH]2)cc1 | MTT | >100 µg/mL
CCSc1n[nH]c(-c2cccc(C(F)(F)F)c2)n1 |  | 52.72 µg/mL
COc1cc2c(c(O)c1OC)-c1c(cc(OC(C)=O)c(OC)c1O)C[C@@H](C)[C@@H](C)C2 | MTT | >10 µg/mL
CCCCSc1n[nH]c(-c2cccc([N+](=O)[O-])c2C)n1 |  | >100 µg/mL
CC(C)c1ccc2[nH]c3cc(C#N)c(=O)oc3c2c1 | visual reading / absorbance | 32 µg/mL
O=[N+]([O-])c1ccc(N2CCN(c3ccc([N+](=O)[O-])cc3)CC2)cc1 |  | 149.2 µg/mL
Cc1cc(C=O)cc(C)c1Oc1cc(Nc2ccc(C#N)cc2)c2ccccc2n1 | MTT | ≥50 µg/mL
CCCC(=O)Nc1nc(=O)n([C@@H]2C[C@H](CO)[C@@H](O)C2)cc1COC |  | >2933 µM
C#CCSc1n[nH]c(-c2ccc(C(F)(F)F)cc2)n1 | MTT | 73.21 µg/mL
C=CCSc1n[nH]c(-c2ccco2)n1 |  | >100 µg/mL
Cc1c(C(F)(F)F)cc2nc(C(=O)N[C@@H](CO)C(=O)N3CCCC3)sc2c1[N+](=O)[O-] | resazurin / fluorescence | >100 µM
CCSc1n[nH]c(-c2cccc([N+](=O)[O-])c2C)n1 |  | >100 µg/mL
C=C(C)[C@@H]1CCC2(C(=O)OC)CC[C@]3(C)C(CCC4[C@@](C)(CC#N)C(C(C)(C)C(=O)NCC(=O)OCC)CC[C@]43C)C12 | MTT | >100 µM
COc1cc(O)c2c(c1)C(=O)C(CC(C)=O)=C(C)C2=O | MTT | 76.5 µg/mL
CC(C)CCN=C(N)c1ccc(N2CCN(c3ccc(C(N)=NCCC(C)C)cc3)CC2)cc1 |  | >0.9 µg/mL
N#Cc1cc2[nH]c3ccc(OC(F)(F)F)cc3c2oc1=O | visual reading / absorbance | 32 µg/mL
COc1ccc(-c2nc3ccccc3n2C(=O)/C=C/c2ccccc2)cc1 | MTT / absorbance | 30 µg/mL
c1cc(N2CCN(c3ccc(C4=NCCCN4)cc3)CC2)ccc1C1=NCCCN1 |  | 163.3 µg/mL
NNC(=O)c1ccncc1 | MTT | >100 µg/mL
C#CCSc1n[nH]c(-c2cccc([N+](=O)[O-])c2C)n1 |  | >100 µg/mL
Cc1cc(C#N)cc(C)c1Oc1cc(Nc2ccc(C#N)cc2)nc2ccccc12 | MTT | ≥50 µg/mL
CCc1ccc2[nH]c3cc(C#N)c(=O)oc3c2c1 | visual reading / absorbance | 32 µg/mL
C#CCSc1n[nH]c(-c2ccc(Cl)cc2C)n1 |  | >100 µg/mL
C[C@H]1COC2(CCN(c3nc(=O)c4cc(C(F)(F)F)cc([N+](=O)[O-])c4s3)CC2)O1 | resazurin / fluorescence | 46 µM
CC(C)CS[C@@H]1C=C[C@H](n2cnc3c(N)ncnc32)C1 |  | 50 µg/mL
Cc1nc2ccccc2n1C(=O)/C=C/c1ccccc1 | MTT / absorbance | >30 µg/mL
NC(=Nc1ccccc1)c1ccc(N2CCN(c3ccc(C(N)=Nc4ccccc4)cc3)CC2)cc1 |  | >11.6 µg/mL
Cc1c(C(F)(F)F)cc2nc(C(=O)N3CCCCC3)sc2c1[N+](=O)[O-] | resazurin / fluorescence | >100 µM
CCCN=C(N)c1ccc(N2CCN(c3ccc(C(N)=NCCC)cc3)CC2)cc1 |  | >153 µg/mL
COc1cc(O)c2c(c1O)C(=O)c1cc(C)ncc1C2=O | MTT | 86.2 µg/mL
CN=C(N)c1ccc(N2CCN(c3ccc(C(N)=NC)cc3)CC2)cc1 |  | >100 µg/mL
FC(F)(F)c1cccc(-c2nc(=S)[nH][nH]2)c1 | MTT | 44.86 µg/mL
N=C(N)c1ccc(NC(=O)CCCCC(=O)Nc2ccc(C(=N)N)cc2)cc1 |  | 500 µg/mL
NNC(=O)c1ccc(N2CCN(c3ccc(C(=O)NN)cc3)CC2)cc1 |  | 60 µg/mL

Repeating the final 5 entries:

| smiles | read by | result |
|---|---|---|
| COc1cc(O)c2c(c1O)C(=O)c1cc(C)ncc1C2=O | MTT | 86.2 µg/mL |
| CN=C(N)c1ccc(N2CCN(c3ccc(C(N)=NC)cc3)CC2)cc1 |  | >100 µg/mL |
| FC(F)(F)c1cccc(-c2nc(=S)[nH][nH]2)c1 | MTT | 44.86 µg/mL |
| N=C(N)c1ccc(NC(=O)CCCCC(=O)Nc2ccc(C(=N)N)cc2)cc1 |  | 500 µg/mL |
| NNC(=O)c1ccc(N2CCN(c3ccc(C(=O)NN)cc3)CC2)cc1 |  | 60 µg/mL |

An empty or dashed field is not shown. Lines come from different laboratories, so protocols vary.